Experimental data published in patent US20210236539A1, “METHOD OF PROPHYLAXIS OF ZIKA VIRUS INFECTION” (priority 2016, published 2021).

Assay: Cytotoxicity (CC50) in the West Nile Fever virus assay

Substance: [BHAlys][Lys]16[CONH-Ph-3,5-(SO3Na)2]32
- CC50 NR (NR readout): > 100 µg/mL
- CC50 VIS (VIS readout): > 100 µg/mL
